# Results reported in the supplement of paper PMC12637763.
# Residue numbers refer to the chain shown, from its start. The list shows a part of the results. Env chains of viruses from a treatment-interruption trial, translated from the printed DNA. IC50 / IC80 of two broadly neutralizing antibodies; lower = more sensitive virus; >50 µg/ml means not reached and <0.001 µg/ml is below the lowest dose. No active / inactive call.
# B1: HIV-1 Env, rebound clone, placebo arm (protein)
# chain: MKVRGTKMNWQHLWWRWGTMLLGMLMICKATEEKWVTVYYGVPVWKEATTTLFCASDAKAYEKEAHNVWATHACVPTDPSPQEVVLENVTENFNMWKNNMVEQMHEDIISLWDQSLKPCVKLTPLCVTLNCTDYTNSNSTNHTNSNSSSPTPTAGGEIKNCSFNITTNIRDKIKKEHALFYSLDVVQIDINDNTSYRLISCNTSVITQACPKTTFEPIPIYYCAPAGFAILKCNNKTFDGKGPCKNVSTVQCTHGIRPVVSTQLLLNGSLAEKEIVIRSDNFSDNTKNIIVQLKDPVVINCTRPNNNTRKGIHIGPGRAFYATGKVIGDIRQAYCNISKEEWNKTLGQIVKKLGAQFGNKTTMIFNQSSGGDPEIVTHSFNCGGEFFYCNTSALFNSTWSSNDGNGTWNKINSTETNSTEIILQCRIKQIVNMWQEVGKAMYAPPIKGPIRCSSNITGLILTRDGGNNTGNNSETFRPAGGNMRDNWRSELYKYKIVKIEPLGIAPTKAKRRTVQREKRAVTMGAMFLGFLGAAGSTMGAASLTLTVQARQLLSGIVQQQNNLLRAIEAQQHLLQLTVWGIKQLQARVLAVERYLADQRFLGIWGCSGKLICTTTVPWNNSWSNKSLDSIWNNMTWMQWEKEIENYTGEIYNLIEQAQNQQEQNERELLELDKWASLWNWFDISNWLWYIKIFIMIVGGLIGLRIVFAVLSIVNRVRQGYSPLSLQTLLPTPRGPDRPEGIEGEGGERDRDTSIRLVDGFLALFWDDLRNLCLFSYRHLRDLLLIAARIVELLGLRGWEILKYLWNLLLYWSQELKNSAISLLDATAIAVAEGTDRIIEAVRRFCRGVLHIPRRIRQGFERALQ
# B2: HIV-1 Env, rebound clone, placebo arm (protein)
# chain: B1 chain with S401R, I411T
# B3: HIV-1 Env, rebound clone, placebo arm (protein)
# chain: B1 chain with I411T, V437I
# B4: HIV-1 Env, rebound clone, placebo arm (protein)
# chain: B1 chain with M8V, I411T
# B5: HIV-1 Env, rebound clone, placebo arm (protein)
# chain: MRVKGIMRNYQHLWRWGIMLLGMLMICNATEKLWVTVYYGVPVWKEATTTLFCASDAKAYDTEAHNVWATHACVPTDPDPQEVVLENVTENFNAWKNDMVEQMHEDIISLWDQSLKPCVKLTPLCVTLECTDNVNCTGTNCTGVKDTNDTNNANLIMEKGEMKNCSFNITTNIRDKVDRQYALFYKLDIVQIEDNNTNTYRLISCNTSVITQACPKVSFEPIPIHYCAPAGFAILKCKDKGFSGKGTCKNVSTVQCTHGIRPVVSTQLLLNGSLAEKEVVIRSNNLTNNAETIIVQLSKTIQINCTRPNNNTRKGIHIGPGRAFYATGEIIGDIRQAHCNISGKDWNEALKWIAGKLKEKFNKTIVFRPPIRGGDPEIVMHTFNCGGEFFYCNTTKLFNSTHNDTHDTAINNTTITLPCKIKQIINMWQEVGKAMYAPPIRGNISCSSNITGLLLIRDGGNTSTNETFRPGGGNMKDNWRSELYKYKVVKIEPLGVAPTKAKRRVVQREKRAMGLGALFLGFLGAAGSTMGAASVTLTVQARQLLSGIVQQQNNLLRAIEAQQHMLQLTVWGIKQLQARVLAVERYLKDQQLLGIWGCSGKLICTTSVPWNTSWSNKSYHQIWENMTWMQWEKEIDNYTGIIYTLIEESQTQQEMNEKELLELDKWAGLWNWFSITNWLWYIRIFIMIVGGLIGLRIVFAVLSIVKRVRQGYSPLSFQTLFPTQRGPDRPGEIEEEGGEQDRGRSIRLVDGFLALFWDDLRSLCLFSYHRLRDLLLIVARIVELLGRRGWEILKYWWSLLQYWSQELKNSAISLLNTTAIIVGEGTDRVIETAQRVVRAFLHIPRRIRQGFERALQ
# B6: HIV-1 Env, rebound clone, placebo arm (protein)
# chain: MRVKGIMRNYQHLWRWGIMLLGMLMICNATEKLWVTVYYGVPVWKEATTTLFCASDAKAYDTEAHNVWATHACVPTDPDPQEVVLENVTEDFNAWKNDMIEQMHEDIISLWDQSLKPCVKLTPLCVTLECTDNVNCTGTNCTGVKDTNDTNNANLIMEKGEMKNCSFNITTNIRDKVDRQYALFYKLDIVQIEDNNTNTYRLISCNTSVITQACPKISFEPIPIHYCAPAGFAILKCKDKGFSGKGTCKNVSTVQCTHGIRPVVSTQLLLNGSLAEKEVVIRSNNLTNNAETIIVQLSKTIQINCTRPNNNTRKGIHIGPGRAFYATGEIIGDIRQAHCNISRKDWNEALKGIAGKLKEKFNKTIVFRPPIRGGDPEIVMHTFNCGGEFFYCNTTKLFNSTHNGNDTHDTAINNTTITLPCKIKQIINMWQEVGKAMYAPPIRGNISCSSNITGLLLIRDGGNTSTNETFRPGGGNMKDNWRSELYKYKVVKIEPLGVAPTKAKRRVVQREKRAMGLGALFLGFLGAAGSTMGAASVTLTVQARQLLSGIVQQQNNLLRTIEAQQHMLQLTVWGIKQLQARVLAVERYLKDQQLLGIWGCSGKLICTTSVPWNTSWSNKSYHQIWENMTWMQWEKEIDNYTGIIYTLIEESQTQQEMNEKELLELDKWASLWNWFSITNWLWYIRIFIMIVGGLIGLRIVFAVLSIVKRVRQGYSPLSFQTLFPAQRGPDRPGGIEEEGGEQDRGRSIRLVDGFLALFWDDLRSLCLFSYHRLRDLLLIVARIVELLGRRGREILKYWWSLLQYWSQELKNSAISLLNTTAIIVGEGTDRVIETAQIVVRAFLHIPRRIRQGFERALQ
# Biological target: antibody 10-1074
# Test: neutralization IC50; higher = virus less sensitive to the antibody
# Procedure: (§1)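 Pseudovirus bearing the Env chain mixed with antibody, from 50 µg/ml in fivefold dilutions, on TZM-bl reporter cells, in duplicate.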
row,Binder,neutralization IC50
1,B1,3 ng/mL
2,B2,6 ng/mL
3,B3,8 ng/mL
4,B4,10 ng/mL
5,B5,161 ng/mL
6,B6,135 ng/mL

# Biological target: antibody 3BNC117
# Test: as above
# Procedure: as §1
row,Binder,neutralization IC50
1,B1,0.179 µg/mL
2,B2,0.168 µg/mL
3,B3,0.099 µg/mL
4,B4,0.202 µg/mL
5,B5,0.103 µg/mL
6,B6,0.066 µg/mL

# Biological target: antibody 10-1074
# Test: neutralization IC80; higher = virus less sensitive to the antibody
# Procedure: as §1
row,Binder,neutralization IC80
1,B1,0.023 µg/mL
2,B2,0.034 µg/mL
3,B3,0.025 µg/mL
4,B4,0.054 µg/mL
5,B5,0.557 µg/mL
6,B6,0.647 µg/mL

# Biological target: antibody 3BNC117
# Test: as above
# Procedure: as §1
row,Binder,neutralization IC80
1,B1,0.676 µg/mL
2,B2,1.27 µg/mL
3,B3,0.907 µg/mL
4,B4,1.01 µg/mL
5,B5,0.447 µg/mL
6,B6,0.26 µg/mL
